For this data set, the system named is HCV genotype 1b I389luc-ubi-neo/NS3-3'/5.1 replicon in Huh5.2 cells. The format is cell-based, Hepatitis C Virus.

Each structure is given as a SMILES string.

Consider two compounds from patent US9119853B2, “Sanglifehrin based compounds” (priority 2010, dated 2015).

With `CC(=O)CC[C@H]1C(=O)N[C@@H](C(C)C)C(=O)N[C@@H](Cc2cccc(O)c2)C(=O)N2CCC[C@H](N2)C(=O)O[C@H](/C(C)=C/CO)C/C=C/C=C/[C@H](O)[C@H](C)[C@H]1O` [hydroxymacrocycle, 6, reference compound], the “Selectivity index (CC50/EC50)” value is recorded as 9.9.

Consider `CC[C@H]1C[C@H](C)[C@@]2(NC1=O)O[C@@H](C[C@H](O)[C@@H](C)CC/C=C/C=C(\C)[C@@H]1C/C=C/C=C/[C@H](O)[C@H](C)[C@@H](O)[C@@H](CCC(C)=O)C(=O)N[C@@H](C(C)C)C(=O)N[C@@H](Cc3cccc(O)c3)C(=O)N3CCC[C@H](N3)C(=O)O1)[C@H](C)[C@H](O)[C@@H]2C` [Sanglifehrin A, 5, Sanglifehrin A, reference compound], for which the “Selectivity index (CC50/EC50)” value is on record as 28.7.
